Primary screen of a compound library

From ChEMBL document CHEMBL3988442, “University of Dundee, Small-Polar-MMV Screening Library” (2021).

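Phenotypic screen: M. tuberculosis growth, cholesterol and DPPC medium, 4 days; the read-out is not stated. Concentration: 500 µM. Higher reads as more growth inhibition (inferred: compounds with an IC50 in retests scored well above the rest). Size under these conditions: about 18,000 compounds, about 900 of them at 50% or above in at least one test.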

Values are the deposited “Percent Effect”, in %.
How 0% and 100% were set is not recorded. Most values in the screen are low, and negative values occur.
Many other results are left out here, so strong results are more common than in the screen.

O=S(=O)(NC1CCCC1)C1CN(Cc2ccno2)C1 read 1.569%.
CN(Cc1ccccc1)C(=O)CCN read 2.449%.
O=C(CN1C(=O)CC2(CCCC2)C1=O)NCC1CC1 read 19.59%.
CCN(CC(C)C#N)C(=O)c1ccc(C)[nH]c1=O (centres undefined) read -20.83%.
CC(=O)N1CCC(N)c2ccc(F)cc2C1 (centres undefined) read -2.519%.
O=C(NCc1cccs1)c1cnsn1 read 64.99%.
C[C@@H]1CN(C(=O)c2ccns2)C[C@@]1(O)C1CC1 read 7.946%.
COc1ccc(CSCC(N)=O)cc1Br read 63.17%.
Cn1nc2n(c1=O)CCN(Cc1ccc(Br)s1)CC2 read 71.51%.
CSCC(C)(O)CNC(=O)c1cc(C(C)C)[nH]n1 (centres undefined) read 10.01%.
Cc1nnc(CCNC(=O)CN2CCC(N(C)C)C2)s1 (centres undefined) read 10.47%.
Cc1cc(Br)cc2cc(C(=O)NC(C)(CO)CO)oc12 read 54.59%.
NCC(O)CN1CCc2ccccc2C1 (centres undefined) read 3.858%.
CC(=O)Nc1ccc(F)c(C(=O)N2CCCCO2)c1 read 4.044%.
Cc1nc2c(o1)CCCC2O (centres undefined) read -7.876%.
Cc1cc(C)cc(NC(=O)CCN2CCN(C)CC2)c1 read 7.014%.
Cc1cc(C(=O)NCCOc2ncccc2Cl)[nH]n1 read 25.67%.
CN(C)CCC(O)c1ccccc1 (centres undefined) read 1.523%.
COCCC1CN(C(=O)c2ccc(C)c(F)c2)CCO1 (centres undefined) read 69.73%.
CC(C)S(=O)(=O)N(C)CC(=O)N(C)Cc1cccs1 read 8.289%.
CC1CN(C)CCC1=O (centres undefined) read -28.2%.
Cc1ccc(CNCCOc2ccccn2)o1 read 57.79%.
CC(NC(=O)CSc1nnnn1C1CC1)c1cccs1 (centres undefined) read 48.68%.
Cc1ccoc1CNC(C)Cn1cncn1 (centres undefined) read -1.015%.
CN(C)S(=O)(=O)N1CCCC1c1ccccc1Br (centres undefined) read 57.16%.
C=C(C)CCOC(=O)c1cc(C(N)=O)cs1 read 80.28%.
COc1cc(CCN)ccc1Cl read 12.77%.
CN(Cc1cccc(C#N)c1)C(=O)C1CC1 read 69.74%.
NC(=O)c1ccccc1CO read -21.18%.
CC(C)(CN)C1(O)CCOCC1 read 13.15%.
O=C1NCCN2CC3(CCNCC3)CC12 (centres undefined) read 2.852%.
COc1c(C)cc(Br)cc1C(=O)Nc1nnn(C)n1 read 58.94%.
CN(C)C(CCN)c1ccccc1 (centres undefined) read 10.98%.
N#Cc1c(N)nc2c(c1-c1ccccc1)C(=O)CCC2 read -12.45%.
COc1ccc2c(c1)OCCN(C(=O)C(C)OC)C2 (centres undefined) read 6.635%.
CNC(=O)CCSc1ccc2c(c1)OCCO2 read 72.06%.
CC(Cc1ccco1)NC(=O)C1CCN(C(N)=O)CC1 (centres undefined) read 6.237%.

The last 3 entries again:

| Compound | Percent Effect |
|---|---|
| `COc1ccc2c(c1)OCCN(C(=O)C(C)OC)C2` (centres undefined) | 6.635% |
| `CNC(=O)CCSc1ccc2c(c1)OCCO2` | 72.06% |
| `CC(Cc1ccco1)NC(=O)C1CCN(C(N)=O)CC1` (centres undefined) | 6.237% |